A mixed list of measured activities; the numbers were collected in NIAID ChemDB.

All rows: growth or infection tests; organism: Herpes simplex virus 1; method: plaque count; endpoint: EC50

ECn: concentration that inhibits the pathogen or its effect by n%. Blank or dashed fields: not listed here. Lines come from different laboratories, so protocols vary.

structure,cells,strain or isolate,result
Nc1nc2c(ncn2CCC(CO)CO)c(=O)[nH]1,VERO,KT3,55.7 µM
O=c1[nH]c(=O)n([C@@H]2O[C@H](CO)[C@@H](O)[C@@H]2O)cc1/C=C/Br,VERO,77,3.8 µM
Cn1cc(C(=O)NCc2ccc(Cl)cc2)c(=O)c2cc(CN3CCOCC3)ccc21,HFF,13231,3.3 µM
Nc1nc2c(ncn2CC(CO)CCO)c(=O)[nH]1,VERO,C42 (acyclovir-resistant),60 µM
O=C(NCc1ccc(Cl)cc1)c1c[nH]c2ccc(C#CCO)cc2c1=O,,F,9.5 µM
Nc1ccn(C[C@@H](CO)OCP(=O)(O)O)c(=O)n1,HFF,F,0.6 µg/mL
Nc1ccn([C@@H]2O[C@H](CO)[C@@H](O)[C@@H]2O)c(=O)n1,VERO,KOS,0.2 µM
Nc1nc2c(ncn2CC[C@@H](O)CO)c(=O)[nH]1,VERO,7935-72,1.2 µM
O=c1[nH]c(=O)n([C@H]2C[C@H](O)[C@@H](CO)O2)cc1F,HELF,42-78,156 µM
Cn1cc(C(=O)NCc2ccc(Cl)cc2)c(=O)c2cc(CN3CCOCC3)ccc21,VERO,KOS-M1,>50 µM
Nc1nc2c(ncn2COCCO)c(=O)[nH]1,VERO,C42 (acyclovir-resistant),10 µM
CCc1cn([C@H]2C[C@H](O)[C@@H](CO)O2)c(=O)[nH]c1=O,HELF,77,2.1 µM
C[C@@H](c1ccccc1)N(CC(=O)Nc1ccc(-c2csc(N)n2)cc1)C(=O)c1ccncc1,BHK-21/C13,PAA5,0.12 µM
Nc1nc2c(ncn2CC[C@@H](O)CO)c(=O)[nH]1,VERO,C42 (acyclovir-resistant),230 µM
Cc1cn([C@@H]2O[C@H](CO)[C@@H](O)[C@@H]2O)c(=O)[nH]c1=O,VERO,KOS,11.6 µM
Nc1nc(=O)n([C@@H]2O[C@H](CO)[C@@H](O)[C@@H]2F)cc1I,HELF,77,0.14 µM
Nc1nc2c(ncn2COC(CO)CO)c(=O)[nH]1,VERO,,0.57 µM
O=C(O)P(=O)(O)O,RK-13,MMUDR-resistant,31 µM
O=C(NCc1ccc(Cl)cc1)c1cn2c3c(cc(CN4CCOCC4)cc3c1=O)OC(c1cccnc1)C2,HFF,11359 (ACV-resistant),6.5 µM

2 of the rows above, restated:

structure	cells	strain or isolate	result
Nc1nc2c(ncn2COCCO)c(=O)[nH]1	VERO	C42 (acyclovir-resistant)	10 µM
O=c1[nH]c(=O)n([C@H]2C[C@H](O)[C@@H](CO)O2)cc1F	HELF	42-78	156 µM